For the test, the target named is Anthrax protective antigen (PA83) (Bacillus anthracis, strain , UniProt P13423). In words: ELISA. On the technique in general: An ELISA detects its analyte on a solid surface through an enzyme-linked reagent.

The results in this text go back to PMC4227228, “Preparation and Evaluation of Human-Murine Chimeric Antibody against Protective Antigen of Bacillus anthracis” (International Journal of Molecular Sciences, 2014).

B1: human/murine chimeric PA6-Fab (Fab, V domains shown)
VH: DVQLQESGPGLVKPSQSLSLTCTVTGYSITSDYAWNWIRQFPGNKLEWMGYISYSGSTSYNPSLKSRISIYRDTSKNQFFLQLNSVTIEDTATYYCARRDYGYLTWFAYWGQGTLVTVSA
VL: DILLTQSPAIMSASPGEKVTMTCSASSSISYMHWYQQKPGTSPKRWIYDTSKLASGVPARFSGSGSGTSYSLTISSMEAEDAATYYCHQRSSWTFGGGTKLEMK
notes: also called chimeric Fab antibody
Broadly, the Kd is the free concentration of one partner at which half of the binding sites on the other are occupied at equilibrium, for simple one-to-one binding. Higher therefore signals a looser complex. As for B1, the Ka was 5.07e-09 M⁻¹ and the dissociation constant (Kd) turned out to be 1.76 nM.
